Several values for one entry are separate records, joined by “and”; a condition that tells them apart may be missing. Identical values can stand only once.
Tested on: acetic acid-induced writhing in mice
Type: in vivo, Kunming mice
Conditions: aspirin combined with TTX 0.79 μg/kg (1/25 LD50), i.m.; probit method

For `CC(=O)Oc1ccccc1C(=O)O` [ASP, Aspirin], the “ID50 (half inhibition dose) of aspirin” value was 5.0 mg/kg and 5.01 mg/kg.
